Data as given in patent US20230365659A1 (EPSILON MOLECULAR ENGINEERING, published 2023).

B1: Bacillus subtilis-derived VHH-COVE1 (VHH)
VHH: AEVQLVESGGGLVQPGGSLRLSCAASGFAFSSYPMYWVRQAPGKGLEWISFIDGEGTSTSYADSVKGRFTISRDNAKNTVYLQMNSLKPEDTAVYYCNALLRRYNYGFTFDNYWGQGTQVTVSSGGGSHHHHHH
B2: Bacillus subtilis-derived VHH-COVE2 (VHH)
VHH: AEVQLVESGGGLVQAGDSLRLSCAATRRTSSTYAMGWFRQAPGKGLEWVAAISWDGGRTYYAESVKGRFTISRDNAKNTVYLQMNSLKPEDTAVYYCYSFGGSDFLMDYWGQGTQVTVSSGGGSHHHHHH
B3: Bacillus subtilis-derived VHH-COVE3 (VHH)
VHH: AEVQLVESGGGFVQAGGSLRLSCRVSAPTFMTYTMAWFRQAPGNEREFVAALSKNFVTTSYADSVKGRFTISRDNAKNTVYLQMNSLKPEDTAVYYCNVAWSDYEYLEVWGQGTLVTVSSGGGSHHHHHH

Experiments:
[1] = molecular target: T1, SARS-CoV-2 (2019-nCoV) spike S1-Fc recombinant protein (Sino Biological, Inc.) (SARS-CoV-2, UniProt P0DTC2 16-685); experiment: BLI competition on S1-Fc; competitor COVE1
T1 construct: also called spike S1 protein; S1 protein

[2] = molecular target: T1, SARS-CoV-2 (2019-nCoV) spike S1-Fc …; experiment: BLI competition on S1-Fc; competitor COVE2
[3] = molecular target: T1, SARS-CoV-2 (2019-nCoV) spike S1-Fc …; experiment: BLI competition on S1-Fc; competitor COVE3
[4] = molecular target: T1, SARS-CoV-2 (2019-nCoV) spike S1-Fc …; experiment: BLI competition on S1-Fc; competitor COVE4
[5] = molecular target: T1, SARS-CoV-2 (2019-nCoV) spike S1-Fc …; experiment: BLI competition on S1-Fc; competitor COVE5
[6] = molecular target: T1, SARS-CoV-2 (2019-nCoV) spike S1-Fc …; experiment: BLI competition on S1-Fc; competitor COVE6
[7] = molecular target: T1, SARS-CoV-2 (2019-nCoV) spike S1-Fc …; experiment: BLI competition on S1-Fc; competitor COVE7
[8] = molecular target: T1, SARS-CoV-2 (2019-nCoV) spike S1-Fc …; experiment: BLI competition on S1-Fc; competitor COVE8
[9] = molecular target: T1, SARS-CoV-2 (2019-nCoV) spike S1-Fc …; experiment: BLI competition on S1-Fc; competitor COVE9

Binder	binding signal with the second antibody, % of the signal with S1 alone [1] [%]	binding signal with the second antibody, % of the signal with S1 alone [2] [%]	binding signal with the second antibody, % of the signal with S1 alone [3] [%]	binding signal with the second antibody, % of the signal with S1 alone [4] [%]	binding signal with the second antibody, % of the signal with S1 alone [5] [%]	binding signal with the second antibody, % of the signal with S1 alone [6] [%]	binding signal with the second antibody, % of the signal with S1 alone [7] [%]	binding signal with the second antibody, % of the signal with S1 alone [8] [%]	binding signal with the second antibody, % of the signal with S1 alone [9] [%]
B1	22	73.3	96.3	10.2	61.2	99.2	69	107	107
B2	62.7	18.6	17	68.4	33.9	3.38	5.54	3.61	2.13
B3	109	19.4	13.2	80.3	49.6	15.3	21.9	20.1	5.87
